Results: US10806164B2 (priority 2016, dated 2020)
Marks after values point to notes of the source that are not given here.

Conditions: rat, in vivo

Deoxynivalenol [DON]
Conversion food Means ± Standard error: 6.15 ± 0.287 ^b | Gain of weight Means ± Standard error: 83 ± 3.45 ^b | Weight Final Means ± Standard error: 169 ± 3.69 ^b g
